Results of unrelated studies side by side (data: NIAID ChemDB).

All rows: growth or infection tests; organism: Hepatitis C virus; read-out: EC50

Neighbouring rows are from separate reports. An empty or dashed field is not shown. ECn: concentration that inhibits the pathogen or its effect by n%.

structure | strain or isolate | cells | read by | setting | value
COc1ncnc2c1c(C#N)cn2[C@@H]1O[C@H](CO)[C@@H](O)[C@H]1O | - | - | replicon | - | 0.4 µM
CS(=O)(=O)Nc1ccc2c(c1)S(=O)(=O)N/C(=c1\c(=O)c3cccn3n(Cc3ccc(F)c(Cl)c3)c1=O)N2 | 1b | HCV Huh-7/C24 | replicon | - | 0.022 µM
N#Cc1cn([C@@H]2O[C@H](CO)[C@@H](O)[C@H]2O)c2ncnc(NCc3ccccn3)c12 | - | - | replicon | - | 5 µM
CCC[C@H](NC(=O)[C@@H]1[C@H]2CCC[C@H]2CN1C(=O)[C@@H](NC(=O)[C@@H](NC(=O)c1cnccn1)C1CCCCC1)C(C)(C)C)C(=O)C(=O)NC1CC1 | - | HuH6 | PCR | - | >24 µM
CC(C)Nc1ncnc2c1c(C#N)cn2[C@@H]1O[C@H](CO)[C@@H](O)[C@H]1O | - | - | replicon | - | 8 µM
CCN(CC(=O)NCc1ccccc1)C(=O)CCN1C(=O)[C@H](C)C2CC[C@H](C)C3CC[C@]4(C)OO[C@]32C1O4 | - | Huh 5-2 | replicon | - | 31 µM
Cc1nnc(C(=O)NC(C)(C)c2nc(C(=O)NCc3ccc(F)cc3)c(O)c(=O)n2C)o1 | GT1b | Replicon cells | luciferase | 45% human serum | >143 µM
CNc1ncnc2c1c(C#N)cn2[C@@H]1O[C@H](CO)[C@@H](O)[C@H]1O | - | - | replicon | - | 11 µM
Fc1cccc(-c2nc3ccn(Cc4cc(-c5ccc(Cl)cc5)no4)cc-3n2)c1F | - | Huh 5-2 | luciferase | - | >19 µM
CN1CCCC(CN(C)C(=O)Cn2c(-c3ccccc3)c(C3CCCCC3)c3sc(C(=O)O)cc32)C1 | - | Huh7 | - | - | 1.2 µM
CC(C)(C)OC(=O)N[C@@H]1CCCCC/C=C\[C@@H]2C[C@@]2(C(=O)NS(=O)(=O)C2CC2)NC(=O)[C@@H]2C[C@@H](OC(=O)N3Cc4cccc(F)c4C3)CN2C1=O | J6 | Huh7.5 | antigen | - | 0.111 µM
NC(=O)c1nn(Cc2ccc(NC(=O)C3CC3)cc2)c2ccccc12 | J399EM | Huh7.5.1 | fluorescence | - | >10 µM
CN(C)CCN1CCn2c(c(C3CCCCC3)c3sc(C(=O)O)cc32)-c2ccccc21 | - | Huh7 | - | - | 0.21 µM
CC(=O)O[C@@H]1[C@H](OC(C)=O)[C@@H](OC(C)=O)C=C2c3cc4c(cc3C(=O)N[C@H]21)OCO4 | Synthesized HCV RNA | Huh7.5 | antigen / microscopy | - | >0.98 µM
C[C@H]1CCC2[C@@H](C)C(=O)N(CCC(=O)N(CC(=O)NC(C)(C)CC(C)(C)C)C(C)(C)C)C3OC4(C)CCC1[C@@]23OO4 | - | Huh 5-2 | replicon | - | 7 µM
O=C1Nc2ccc(Cl)cc2[C@@](C#CC2CC2)(C(F)(F)F)O1 | GT1b | Replicon cells | luciferase | 45% human serum | ≥172 µM
N=C(N)c1cn([C@@H]2O[C@H](CO)[C@@H](O)[C@H]2O)c2nc[nH]c(=O)c12 | - | - | replicon | - | 100 µM
Cc1cn([C@H]2C[C@H](N=[N+]=[N-])[C@@H](CO)O2)c(=O)[nH]c1=O | GT1b | Replicon cells | luciferase | 45% human serum | 85.7 µM
Cc1cccc(C(=O)Nc2cccc(Cn3nc(C(N)=O)c4ccccc43)c2)c1 | J399EM | Huh7.5.1 | fluorescence | - | 0.23 µM
C=C[C@@H]1C[C@]1(NC(=O)[C@@H]1C[C@@H](c2nc(-c3ccccc3)cs2)CN1C(=O)C(NC(=O)OC1CCCC1)C(C)(C)C)C(=O)NS(=O)(=O)C1CC1 | - | Huh7 cells | replicon | - | 0.43 µM
O=c1/c(=C2/Nc3ccc(C4CCCS4(=O)=O)cc3S(=O)(=O)N2)c(=O)n(Cc2ccc(F)cc2)n2cccc12 | 1b | HCV Huh-7/C24 | replicon | - | 0.38 µM
CN(Cc1ccccc1)Cc1c(C(=O)O)sc2c(C3CCCCC3)c(-c3ccccc3)[nH]c12 | - | Huh7 | - | - | 3.4 µM
C[C@H]1CCC2[C@@H](C)C(=O)N(CCC(=O)N(C)CC(=O)NCc3ccccc3)C3O[C@]4(C)CCC1[C@@]23OO4 | - | Huh 5-2 | replicon | - | 11 µM
CSc1ncnc2c1c(C#N)cn2[C@@H]1O[C@H](CO)[C@@H](O)[C@H]1O | - | - | replicon | - | 0.4 µM
COc1ccc2c(O[C@@H]3C[C@H]4C(=O)N[C@]5(C(=O)NS(=O)(=O)C6CC6)C[C@H]5/C=C\CCCCN(C)C(=O)[C@@H]4C3)cc(-c3nc(C(C)C)cs3)nc2c1C | SA13 | Huh7.5 | antigen | - | 0.106 µM
CC[C@H](C)C(=O)O[C@H]1CC=CC2C=C[C@H](C)[C@H](CC[C@@H]3C[C@@H](O)CC(=O)O3)[C@H]21 | - | Huh 9-13 | luciferase / replicon | - | 2.2 µM
O=C(O)c1cc2[nH]c(-c3ccccc3)c(C3CCCCC3)c2s1 | - | Huh7 | - | - | 11.2 µM
C[C@H]1CCC2[C@@H](C)C(=O)N(CCC(=O)N(CCc3ccccc3)CC(=O)NCc3ccccc3)C3O[C@]4(C)CCC1[C@@]23OO4 | - | Huh 5-2 | replicon | - | 7 µM
N#Cc1cn([C@@H]2O[C@H](CO)[C@@H](O)[C@H]2O)c2ncnc(NC3CCCC3)c12 | - | - | replicon | - | 7 µM
O=C(O)c1cc2c(s1)c(C1CCCCC1)c(-c1ccc(Oc3ccccc3)cc1)n2CC(=O)N1CCOCC1 | - | Huh7 | - | - | 2.6 µM
C[C@@]1(O)[C@H](O)[C@@H](CO)O[C@H]1c1ccc2c(N)ncnn12 | GT2a | Huh7.5 | PCR | - | 0.63 µM
COCn1c(-c2ccccc2)c(C2CCCCC2)c2sc(C(=O)O)c(CNCc3ccccc3)c21 | - | Huh7 | - | - | 1.3 µM
NC(=O)c1nn(Cc2ccc(N)cc2)c2ccccc12 | J399EM | Huh7.5.1 | fluorescence | - | >10 µM
[N-]=[N+]=N[C@]1(CO)O[C@@H](n2ccc(N)nc2=O)[C@H](O)[C@@H]1O | - | Huh 9-13 | PCR | - | >33 µM
CC(C)CCn1c(=O)/c(=C2\Nc3ccc(NS(C)(=O)=O)cc3S(=O)(=O)N2)c(=O)c2cc(F)cn21 | 1b | HCV Huh-7/C24 | replicon | - | 0.019 µM
NC(=O)c1nn(Cc2cccc(NC(=O)c3cccc([N+](=O)[O-])c3)c2)c2ccccc12 | J399EM | Huh7.5.1 | fluorescence | - | 0.213 µM
C[C@@H]1CC[C@H]2[C@@H](C)C(=O)O[C@@H]3OC4(C)CC[C@@H]1[C@]32OO4 | - | Huh 5-2 | replicon | - | 78 µM

Repeating the first 3 entries:

structure	strain or isolate	cells	read by	setting	value
COc1ncnc2c1c(C#N)cn2[C@@H]1O[C@H](CO)[C@@H](O)[C@H]1O	-	-	replicon	-	0.4 µM
CS(=O)(=O)Nc1ccc2c(c1)S(=O)(=O)N/C(=c1\c(=O)c3cccn3n(Cc3ccc(F)c(Cl)c3)c1=O)N2	1b	HCV Huh-7/C24	replicon	-	0.022 µM
N#Cc1cn([C@@H]2O[C@H](CO)[C@@H](O)[C@H]2O)c2ncnc(NCc3ccccn3)c12	-	-	replicon	-	5 µM